Compound potency records, mixed from different reports. Data source: NIAID ChemDB in PubChem.

Common to all: tests on isolated targets; organism: HIV-1; target: Integrase; read by: strand transfer; endpoint: IC50

ICn: concentration for n% inhibition.

SMILES | changes | strain | result
Cn1ccn2c(=O)c(O)c(-c3ncc(Cc4ccc(Cl)c(Cl)c4)s3)nc12 | E92Q/N155H | - | 0.1–1 µM
CCOC(=O)/C(O)=C(\C#N)c1cn(Cc2ccccc2)c2ccccc12 | - | - | >100 µM
O=C(O)/C(O)=C/C(=O)N(CCCc1ccccc1)Cc1ccc(F)cc1 | - | - | <70 µM
Cn1c(O)c(C(=O)C(=O)O)c2ccccc21 | - | - | 160 µM
CC(=O)N(C)CCN(C)c1nc(C(=O)NCc2ccc(F)cc2)c(O)c2ncccc12 | - | HXB2 | 0.03 µM
Cn1ccn2c(=O)c(O)c(-c3ncc(Cc4ccc(F)cc4)s3)nc12 | E92Q/N155H | - | 0.1–1 µM
CCn1cc(-c2cc(C(=O)O)no2)c2ccccc21 | - | - | 498 µM
N#C/C(=C\c1ccc(O)c(O)c1)C(=O)OCc1ccccc1COC(=O)/C(C#N)=C/c1ccc(O)c(O)c1 | - | - | 0.85 µM
CC(c1ccccc1)N(Cc1ccc(F)cc1)C(=O)/C=C(\O)C(=O)O | - | - | ~70 µM
CC(=O)OC[C@@H]1CCC(=O)N1c1cc(F)ccc1CNC(=O)c1nc2n(c(=O)c1O)CCOC2(C)C | - | - | 0.02–0.1 µM
Cn1ccn2c(=O)c(O)c(-c3ncc(Cc4ccc(F)c(Cl)c4)s3)nc12 | G140S/Q148H | - | 0.1–1 µM
COc1ccc(NC(=O)/C(C#N)=C/c2ccc(O)c(O)c2)cc1O | - | - | 10–100 µM
Nc1ncnc2c1ncn2[C@@H]1C[C@H](CO)[C@H](O)[C@H]1O | - | - | 33–43 µM
Cn1ccn2c(=O)c(O)c(-c3ncc(Cc4ccc(Cl)cc4)s3)nc12 | G140S/Q148H | - | 0.1–1 µM
O=C(NCc1ccc(F)cc1)C1C(=O)N(O)C(=O)c2ccccc21 | - | - | 0.099 µM
COC(=O)/C(O)=C/C(=O)/C=C(\O)c1ccccc1OC | - | - | 240 µM
N#C/C(=C\c1cc(O)c(O)c([N+](=O)[O-])c1)C(=O)NCCCNC(=O)/C(C#N)=C/c1cc(O)c(O)c([N+](=O)[O-])c1 | - | - | 1.9 µM
Cn1c(-c2nc(C(=O)NCc3ccc(F)cc3)c(O)c3ncccc23)cc(=O)n(C)c1=O | - | - | 0.0275 µM
O=C(O)c1cc(-c2ccccc2)on1 | - | - | 200 µM
O=C1C(=O)c2cc(-c3cc(O)c(O)c(O)c3)ccc2C(Oc2c(O)cc(-c3ccc4cc(O)c(O)c(O)c4c3)cc2O)=C1O | - | - | 0.17 µM
CN(Cc1ccc(OCc2ccc(F)cc2)cc1)C(=O)/C=C(\O)C(=O)O | - | - | >70 µM
O=C(NCc1ccc(F)cc1)c1nc[nH]c(=O)c1O | - | - | 1 µM
O=C(O)c1ccccc1SCc1cc(O)ccc1O | - | - | 5–10 µM
CN(C)CCCNC(=O)c1ccc2nc(-c3ccc4nc(-c5ccc(OCCOCCOCCOc6ccc(-c7nc8ccc(-c9nc%10ccc(C(=O)NCCCN(C)C)cc%10[nH]9)cc8[nH]7)cc6)cc5)[nH]c4c3)[nH]c2c1 | - | - | 23 µM
Cn1ccn2c(=O)c(O)c(C(O)NCc3ccc(Cl)c(Cl)c3)nc12 | Wild type | - | 0.1–1 µM
NCCCC[C@H](NC(=O)CNC(=O)[C@H](Cc1cnc[nH]1)NC(=O)[C@H](CC(N)=O)NC(=O)[C@H](Cc1cnc[nH]1)NC(=O)[C@@H](N)Cc1ccccc1)C(=O)N[C@@H](CCC(N)=O)C(=O)O | - | - | 50 µM
CN(Cc1ccc2ccccc2c1)C(=O)/C=C(\O)C(=O)O | - | - | <70 µM
O=C(/C=C/c1ccc(O)c2c1[C@H](C(=O)O[C@H](Cc1ccc(O)c(O)c1)C(=O)O)[C@@H](c1ccc(O)c(O)c1)O2)O[C@H](Cc1ccc(O)c(O)c1)C(=O)O | - | - | 0.37 µM
N#C/C(=C\c1ccc(O)c(O)c1)C(=O)Nc1cccc(C(=O)O)c1 | - | - | 5–10 µM
O=C(Cc1nc(=O)n(O)c2ncccc12)NCc1ccccc1 | - | - | 0.005 µM
COC(=O)c1noc2c1CCc1ccccc1-2 | - | - | >1000 µM
COc1cc2c(c(O)c1O)C1(C)Oc3c(O)c(OC)cc(C=O)c3C(C)(O1)C2=O | - | - | 2.5 µM
N#C/C(=C\c1ccc(O)c(O)c1)C(=O)NCCN1CCN(C(=O)/C(C#N)=C/c2ccc(O)c(O)c2)CC1 | - | - | 5–10 µM

Conditions beyond the fields shown may differ between rows. An empty or dashed field is not shown. Two numbers with a dash give a range or band.